Measured values published in patent US6727226B2 (priority 2000, dated 2004).

Columns and labels:
sodium channels [1] = test: Intracerbroventricular (ICV) injection of S3.2 to mice
sodium channels [2] = test: Intrathecal (it) administration of S3.2 to mice
sodium channels [3] = test: iv administration to rats: skeletal muscle contraction, blood pressure and heart rate; settings: 80 nmol iv

Xaa2-Asn-Cys-Cys-Asn-Gly-Gly-Cys-Ser-Ser-Lys-Xaa4-Cys-Arg-Asp-His-Als-Arg-Cys-Cys-#
spectrum of activity after ICV injection (sodium channels [1]): rapid loss of righting reflex, coma-like inactivity and spastic uncontrolled limb movement | effect following intrathecal administration (sodium channels [2]): rapid hindlimb paralysis that spreads to include the entire body | effect on blood pressure (sodium channels [3]): no effect
